Measured values from several laboratories, pooled; numbers as filed in NIAID ChemDB.

All rows: growth or infection tests; organism: HIV-1; read-out: inhibition

Percent inhibition refers to the dose given; in toxicity tests it is the harm to the cells. Blank or dashed fields: not listed here. Neighbouring rows are from separate reports.

| compound | changes | cell line | read by | setting | dose | strain or isolate | result |
|---|---|---|---|---|---|---|---|
| OCCN1CCN(CC/C=C2/c3ccccc3Sc3ccc(C(F)(F)F)cc32)CC1 |  | MOLT-3 | syncytia |  | 2 µg/mL | IIIB | 34% |
| CN/C(=C\[N+](=O)[O-])NCCSCc1ccc(CN(C)C)o1 |  | MT-4 | p24 |  | 1000 µM |  | 80% |
| c1cc(CN2CCCNCCNCCCNCC2)ccc1CN1CCCNCCNCCCNCC1 |  | PBMC | p24 |  | 0.5 µM | SW23 CLADE C R5 | 0% |
| O=C(NCc1ccc(F)cc1)c1nc(N2CCCCS2(=O)=O)c2cccnc2c1O |  | PBMC | p24 |  | 0.008 µM | 1357 Primary R5 strain | 95% |
| COc1cc(C[C@H]2C(=O)OC[C@@H]2Cc2ccc(OC)c(OC)c2)ccc1O |  | MT-2 | XTT |  | 0.3 µg/mL | IIIB | 91% |
| CCCCN(C(=O)OCc1ccccc1)C1CCN(CCC(CN(C)S(=O)(=O)c2ccccc2)c2ccccc2)CC1 |  | PBMC | p24 |  | 13 µM | YU2 | <95% |
| COCCCCCCCCCCCC(=O)O |  | CEM + CEM-SS | cytopathic effect / XTT |  | 20 µM | IIIB | 32% |
| COc1ccccc1CN[C@H]1C2CCN(CC2)[C@H]1C(c1ccccc1)c1ccccc1 |  | Macrophage + Monocytes/macrophages | RT activity |  | 0.1 µM | UG024 Primary X4 isolate | 0% |
| Cc1cn([C@H]2C[C@H](N=[N+]=[N-])[C@@H](CO)O2)c(=O)[nH]c1=O |  | Macrophage |  |  | 1 µM | JR-FL | 83% |
| Cc1cn([C@H]2C[C@H](N=[N+]=[N-])[C@@H](CO)O2)c(=O)[nH]c1=O |  | CEM | antigen |  | 1 µM | I-232 | 95% |
| CCCCCCCCCCCCCCCCO[C@H](CCl)COP(=O)(O)OCC[N+](C)(C)C |  | H9 | RT activity |  | 3 µM | IIIB | 86% |
| CN1CC[C@H](c2ccccc2)[C@@H](COc2ccc3c(c2)OCCO3)C1 |  | MOLT-3 | p24 |  | 4 µg/mL | IIIB | 7% |
| NC[C@@H]1O[C@H](O[C@H]2[C@@H](O)[C@H](O[C@@H]3[C@@H](O)[C@H](N)C[C@H](N)[C@H]3O[C@H]3O[C@H](CN)[C@@H](O)[C@H](O)[C@H]3N)O[C@@H]2CO)[C@H](N)[C@@H](O)[C@@H]1O |  | U1/HIV-1 + U1 | p24 / ELISA | chronic infection | 2500 µM |  | 85% |
| O=C(O)CCCCCCCCCCCI |  | CEM + CEM-SS | cytopathic effect / XTT |  | 63.2 µM | IIIB | 70.5% |
| Nc1nc(=S)c2ncn([C@H]3CC[C@@H](CO)O3)c2[nH]1 |  | ATH8 | cytopathic effect / trypan blue |  | 2 µM | IIIB | 6% |
| COc1cc([C@@H]2c3cc4c(cc3[C@@H](O[C@@H]3O[C@@H]5CO[C@@H](C)O[C@H]5[C@H](O)[C@H]3O)[C@H]3COC(=O)[C@H]23)OCO4)cc(OC)c1O |  | MT-2 | XTT |  | 0.3 µg/mL | IIIB | 95% |
| CCc1cc(NCc2nc3c(Cl)ccc(Cl)c3o2)c(=O)[nH]c1C | RT-M41L T215Y/F | PBMC | p24 |  | 0.05 µM | Clinical isolate (RT M41L T215Y/F) | 90% |
| COc1cc(C[C@@]2(O)C(=O)OC[C@@H]2Cc2ccc(OC)c(OC)c2)ccc1O |  | PBL | p24 |  | 0.3 µg/mL | IIIB | 66% |
| COc1ccc(OC[C@@H]2CNCC[C@H]2c2ccccc2)cc1 |  | MOLT-3 | p24 |  | 4 µg/mL | IIIB | 7% |
| CCC(C)C(=O)O[C@H]1C(C)(C)[C@H](CC(=O)OC)[C@]2(C)C(=O)[C@@]1(O)C=C1C3=CC(=O)O[C@@H](c4ccoc4)[C@]3(C)CC[C@@H]12 |  | SupT1 | luciferase / luminescence | pseudotyped | 20 µM | NL4-3 | 24.47% |
| CC(C)c1nc(CN(C)C(=O)N[C@H](C(=O)N[C@@H](Cc2ccccc2)C[C@H](O)[C@H](Cc2ccccc2)NC(=O)OCc2cncs2)C(C)C)cs1 |  | MAGI | β-galactosidase |  | 1 µg/mL | IIIB | 0% |
| [N-]=[N+]=NCCCCCCCCCCCC(=O)O |  | CEM + CEM-SS | cytopathic effect / XTT |  | 20 µM | IIIB | 26.6% |
| COc1cc(O)c2c(=O)oc3cc(O)cc(C)c3c2c1 |  | HEK293T | luciferase | pseudotyped | 60 µM | NL4-3 | 70% |
| CC(C)Oc1ccc(OC(C)C)c2c3nc4nc(nc5[nH]c(nc6nc(nc([nH]3)c12)C(SCCCC(=O)O)=C6SCCCC(=O)O)c1c(OC(C)C)ccc(OC(C)C)c51)C(SCCCC(=O)O)=C4SCCCC(=O)O |  | MAGI | β-galactosidase |  | 5 µg/mL | IIIB | 84% |
| NNC(=O)NN1C(=O)c2cc(S(=O)(=O)[O-])cc3c(N)c(S(=O)(=O)[O-])cc(c23)C1=O |  |  | RT activity |  | 1740 µM | LAV | 0% |
| C/C=C(\C)C(=O)O[C@H]1[C@@]2(C)C[C@]3(O)[C@@]1(O)[C@H]1OC4(C)O[C@@]5(C[C@H](O)[C@]6(C)C(=CC(=O)O[C@H]6c6ccoc6)[C@@]15O4)[C@]3(C)[C@H]2CC(=O)OC |  | SupT1 | luciferase / luminescence | pseudotyped | 20 µM | NL4-3 | 0% |
| Nc1nc(=O)n([C@H]2CS[C@@H](CO)O2)cc1F |  | MT-4 | cytopathic effect |  | 5.2 µM |  | 70% |
| CNCCC=C1c2ccccc2CCc2ccccc21 |  | MOLT-3 | syncytia |  | 5 µg/mL | IIIB | 24% |
| Nc1nc(Br)c2ncn([C@H]3CC[C@@H](CO)O3)c2n1 |  | MT-2 | cytopathic effect / trypan blue |  | 20 µM | IIIB | 100% |
| CC(C)=CCN1Cc2cc(Cl)cc3[nH]c(=S)n(c23)C[C@@H]1C | RT-P236L | MT-4 | antigen |  | 0.038 µM | MFE30(RT-P236L) | 90% |
| C[C@@H]1[C@H](O)[C@@H](C)/C=C/C=C/CC/C=C/C=C/C=C/C=C/C(O[C@H]2O[C@H](C)[C@@H](O)[C@H](N)[C@@H]2O)CC2O[C@](O)(CC(O)C(O)CCC(O)CC(O)CC(O)CC(=O)O[C@H]1C)CC(O)C2C(=O)O |  | H9 | p24 / ELISA |  | 10 µg/mL |  | 88% |
| O=C(O)CCCCCCCCCCCCl |  | CEM + CEM-SS | cytopathic effect / XTT |  | 20 µM | IIIB | 14.8% |
| [N-]=[N+]=N[C@@H]1[C@H](O)[C@@H](CO)O[C@H]1n1ccc(N)nc1=O |  | PBMC | p24 |  | 2 µM | IIIB | 40% |
| O=C(O)CCCCCCCCCc1ccccc1 |  | CEM + CEM-SS | cytopathic effect / XTT |  | 20 µM | IIIB | 10.9% |
| CN=C(NC#N)NCCSCc1nc[nH]c1C |  | MT-4 | p24 |  | 10 µM | IIIB | 100% |
| Nc1c(S(=O)(=O)[O-])cc2c3c(cc(S(=O)(=O)[O-])cc13)C(=O)N(NC(=O)N/N=C\c1cccc(C=O)c1)C2=O.[Na+].[Na+] |  |  | RT activity |  | 1760 µM | LAV | 40% |
| Cc1cn([C@H]2C[C@H](N=[N+]=[N-])[C@@H](CO)O2)c(=O)[nH]c1=O |  | MT-2 | cytopathic effect / trypan blue |  | 2 µM | IIIB | 100% |
| C=C(C)[C@@H]1CC[C@]2(C(=O)NCCCCCCCC(=O)N[C@@H](CC(C)C)[C@H](O)CC(=O)O)CC[C@]3(C)[C@H](CC[C@@H]4[C@@]5(C)CC[C@H](O)C(C)(C)[C@@H]5CC[C@]43C)[C@@H]12 |  | PBMC | RT activity |  | 1.84 µM | 89.6 | 90% |
| CCCCCSCCCCCCCC(=O)O |  | CEM + CEM-SS | cytopathic effect / XTT |  | 6.3 µM | IIIB | 11.2% |
| C[C@H]1/C=C/[C@@]2(C)CC[C@@H](C(C)(C)O)[C@@H]2[C@@H](O)C[C@](C)(O)/C=C/C1 |  | PBMC | p24 |  | 25 µM | 95BRRJ010 X4 | 91% |
| CN(C)CCC=C1c2ccccc2CCc2ccccc21 |  | MOLT-3 | RT activity |  | 10 µg/mL | IIIB | 20% |
| CC(C)(C)NC(=O)[C@@H]1C[C@@H]2CCCC[C@@H]2CN1C[C@@H](O)[C@H](Cc1ccccc1)NC(=O)[C@H](CC(N)=O)NC(=O)c1ccc2ccccc2n1 | PR-L10R M46I L63P V82T I84V | CEM + CEM-SS | RT activity | 10 d | 0.1 µM | Indinavir-resistant (PR-L10R M46I L63P V82T I84V) | 100% |
| CCC(C)C(=O)O[C@@H]1C(=O)/C=C2/C3=CC(=O)O[C@@H](c4ccoc4)[C@]3(C)CC[C@@H]2[C@@]2(C)C(=O)C[C@]1(C)[C@@H]2[C@@H](O)C(=O)OC |  | SupT1 | luciferase / luminescence | pseudotyped | 100 µM | NL4-3 | 97.57% |
| O=C(O)P(=O)(O)O |  | H9 | p24 / antigen | 4 d | 30 µM | IIIB | 0% |
| Nc1nc2c(ncn2[C@H]2CC[C@@H](CO)O2)c(=O)[nH]1 |  | ATH8 | cytopathic effect / trypan blue |  | 100 µM | IIIB | 100% |
| CN[C@@H]1C[C@H]2O[C@@](C)([C@@H]1OC)n1c3ccccc3c3c4c(c5c6ccccc6n2c5c31)C(=O)N[C@@H]4O |  | MOLT-4/HIV-1 + MOLT-4 | p24 / ELISA |  | 0.08 µM |  | 20% |
| COCCCCCCCCCCC(=O)O |  | CEM + CEM-SS | cytopathic effect / XTT |  | 200 µM | IIIB | 18.4% |
| Nc1nc(N)c2ncn([C@H]3CC[C@@H](CO)O3)c2n1 |  | ATH8 | cytopathic effect / trypan blue |  | 20 µM | IIIB | 90% |
| CN1CC[C@@H](c2ccccc2)[C@H](COc2ccc3c(c2)OCCO3)C1 |  | MOLT-3 | syncytia |  | 0.8 µg/mL | IIIB | 3% |
| COC(=O)C(O)[C@H]1[C@]2(C)C[C@]3(O)[C@@](O)(C(=O)C4=C(CC[C@]5(C)C4=CC(=O)O[C@H]5c4ccoc4)[C@]13C)[C@H]2OC(=O)C(C)C |  | SupT1 | luciferase / luminescence | pseudotyped | 100 µM | NL4-3 | 99.44% |

A second listing of 4 rows from above:

| compound | changes | cell line | read by | setting | dose | strain or isolate | result |
|---|---|---|---|---|---|---|---|
| CCc1cc(NCc2nc3c(Cl)ccc(Cl)c3o2)c(=O)[nH]c1C | RT-M41L T215Y/F | PBMC | p24 |  | 0.05 µM | Clinical isolate (RT M41L T215Y/F) | 90% |
| Nc1nc(=O)n([C@H]2CS[C@@H](CO)O2)cc1F |  | MT-4 | cytopathic effect |  | 5.2 µM |  | 70% |
| COc1ccccc1CN[C@H]1C2CCN(CC2)[C@H]1C(c1ccccc1)c1ccccc1 |  | Macrophage + Monocytes/macrophages | RT activity |  | 0.1 µM | UG024 Primary X4 isolate | 0% |
| NC[C@@H]1O[C@H](O[C@H]2[C@@H](O)[C@H](O[C@@H]3[C@@H](O)[C@H](N)C[C@H](N)[C@H]3O[C@H]3O[C@H](CN)[C@@H](O)[C@H](O)[C@H]3N)O[C@@H]2CO)[C@H](N)[C@@H](O)[C@@H]1O |  | U1/HIV-1 + U1 | p24 / ELISA | chronic infection | 2500 µM |  | 85% |